Results of unrelated studies side by side (data: NIAID ChemDB).

Common to all: whole-cell or culture tests; species: Herpes simplex virus 1; endpoint: inhibition

Percent inhibition refers to the dose given; in toxicity tests it is the harm to the cells. Conditions beyond the fields shown may differ between rows. An empty or dashed field is not shown.

smiles	strain	cells	read by	dose	result
O=c1[nH]c(=O)n([C@H]2C[C@H](O)[C@@H](CO)O2)cc1/C=C/Br	-	HEP-2	cytopathic effect	0.01 µg/mL	≥25%
Cc1cn([C@H]2C[C@H](O)[C@@H](CO)O2)c(=O)[nH]c1=O	KOS	HeLa	plaque count	25 µM	0%
O=[N+]([O-])c1ccc(NC(=S)Nc2ccc(Oc3ccc(NC(=S)Nc4ccc([N+](=O)[O-])cc4)cc3)cc2)cc1	-	VERO	plaque count	30 µM	<50%
Nc1ncnc2nc(-c3cscn3)[nH]c12	-	VERO	plaque count	10 µg/mL	0%
Nc1nc(=O)n([C@@H]2O[C@H](CO)[C@@H](O)[C@@H]2F)cc1I	KOS	PRK	cytopathic effect	0.02 µg/mL	≥25%
O=[N+]([O-])c1ccc(COc2ccc(S(=O)(=O)c3ccc(OCc4ccc([N+](=O)[O-])cc4)cc3)cc2)cc1	-	VERO	plaque count	30 µM	>50%
O=c1[nH]c(=O)n([C@@H]2C[C@H](O)[C@@H](CO)O2)cc1CCCl	-	HEP-2	cytopathic effect	3 µg/mL	≥25%
CC(C)C[C@H](NC(=O)[C@@H]1O[C@H]1C(=O)O)C(=O)NCCCCN=C(N)N	Fukuda	CV-1	plaque count	40 µM	22%
O=c1[nH]c(=O)n([C@H]2C[C@H](O)[C@@H](CO)O2)cc1/C=C/Br	KOS	HELA BU	plaque count	10 µM	>99%
N=c1ncn(Cc2ccc(Cl)cc2Cl)c2nc[nH]c12	-	BSC-1	plaque count	25 µg/mL	20%
CSC(=NCCc1ccccc1)Nc1ccc(Oc2ccc(/C=C(/NCCc3ccccc3)SC)cc2)cc1	-	VERO	plaque count	5 µM	>50%
CCCCn1cnc(=N)c2[nH]cnc21	-	BSC-1	plaque count	25 µg/mL	0%
C=CCc1cn([C@H]2C[C@H](O)[C@@H](CO)O2)c(=O)[nH]c1=O	KOS	HeLa	plaque count	25 µM	>99%
O=c1[nH]c(=O)n([C@@H]2O[C@H](CO)[C@@H](O)[C@@H]2O)cc1/C=C/Br	C42	VERO	plaque count	1 µM	80%
Fc1ccc2nc3c(cnc4c3cnn4-c3ccccc3)c(Cl)c2c1	-	-	virus yield	50 µM	65%
C#C[C@H]1O[C@@H](n2cc(C)c(=O)[nH]c2=O)C[C@@H]1O	KOS	HELA BU	plaque count	100 µM	1%
CSc1cnc(=O)n([C@H]2C[C@H](O)[C@@H](CO)O2)c1	KOS	HeLa	plaque count	200 µM	89%
Nc1nc2c(ncn2COC(CO)CO)c(=O)[nH]1	SC16	WI-38	plaque count	0.5 µM	90%
Nc1nc2c(ncn2COCCO)c(=O)[nH]1	Fukuda	CV-1	plaque count	2.5 µM	>99%
Cc1ccc(NS(=O)(=O)c2cccc(S(=O)(=O)Nc3ccc(C)cc3)c2)cc1	-	VERO	plaque count	5 µM	<50%
C/C=C/c1cn([C@H]2C[C@H](O)[C@@H](CO)O2)c(=O)[nH]c1=O	TK-	VERO	plaque count	10 µM	0%
N=c1ncn(Cc2cccc([N+](=O)[O-])c2)c2nc[nH]c12	-	BSC-1	plaque count	12 µg/mL	0%
O=c1[nH]c(=O)n([C@H]2C[C@H](O)[C@@H](CO)O2)cc1CCBr	-	HEP-2	cytopathic effect	3 µg/mL	≥25%
Nc1nc2c(ncn2COCCO)c(=O)[nH]1	-	BSC-1	plaque count	50 µM	>99%
Clc1c2ccccc2nc2c1cnc1c2cnn1-c1ccccc1	-	-	virus yield	50 µM	20.6%
Cc1ccc(NC(=S)Nc2ccc(Cl)cc2)cc1NC(=S)Nc1ccc(Cl)cc1	-	VERO	plaque count	30 µM	<50%
CCCc1cn([C@H]2C[C@H](O)[C@@H](CO)O2)c(=O)[nH]c1=O	B2006 (TK-)	HELA BU	plaque count	10 µM	0%
N=c1ncn(CC2CCCCC2)c2nc[nH]c12	-	BSC-1	plaque count	25 µg/mL	0%
O=c1[nH]c(=O)n([C@H]2C[C@H](O)[C@@H](CCl)O2)cc1CCCl	-	HEP-2	cytopathic effect	100 µg/mL	≥25%
O=[N+]([O-])c1cccc2nc3c(cnc4c3cnn4-c3ccccc3)c(Cl)c12	-	-	virus yield	50 µM	80%
CSC(=Nc1ccc([N+](=O)[O-])cc1)Nc1ccc(Oc2ccc(/C=C(/Nc3ccc([N+](=O)[O-])cc3)SC)cc2)cc1	-	VERO	plaque count	30 µM	<50%
O=c1[nH]c(=O)n([C@H]2C[C@H](O)[C@@H](CO)O2)cc1CCCCl	-	HEP-2	cytopathic effect	0.3 µg/mL	≥25%
Nc1ncnc2c1ncn2[C@@H]1O[C@H](CO)[C@@H](O)[C@@H]1O	VL8737	HL	virus yield	1 µg/mL	74%
Cc1cn([C@@H]2O[C@H](CO)[C@@H](O)[C@@H]2F)c(=O)[nH]c1=O	-	HEP-2	cytopathic effect	0.3 µg/mL	≥25%

A second listing of 3 rows from above:

smiles	strain	cells	read by	dose	result
O=[N+]([O-])c1cccc2nc3c(cnc4c3cnn4-c3ccccc3)c(Cl)c12	-	-	virus yield	50 µM	80%
CCCc1cn([C@H]2C[C@H](O)[C@@H](CO)O2)c(=O)[nH]c1=O	B2006 (TK-)	HELA BU	plaque count	10 µM	0%
C#C[C@H]1O[C@@H](n2cc(C)c(=O)[nH]c2=O)C[C@@H]1O	KOS	HELA BU	plaque count	100 µM	1%